Experimental findings from PMC11492869, “Dimerization and lysine substitution of melittin have differing effects on bacteria” (Frontiers in Pharmacology, 2024) are described below.

What is called IC50 is the concentration at which inhibition is half-maximal. A lower IC50 goes with greater potency in that assay. By HC50 is commonly meant the concentration giving 50% haemolysis. Low values mean stronger haemolysis, high ones weaker haemolysis.

Common to all, as to format: cell-based
The test system of data set [1] is H4IIE cells. Put plainly: Cytotoxicity (cell lysis), LDH release assay. The following applies: for LD50: H4IIE cells, LDH release, 90 min exposure at 37°C, 20–0.5 μM, concentration lysing 50% of cells by linear regression, mean ± SD, at least three biological repeats; for TI (cell lysis): H4IIE, LD50/MBC50. The method, then:
(§1) To determine toxicity toward mammalian cells, 1 × 10^4 cells/well of HEK-293 (ATCC CRL-1573TM) or H4IIE in a total volume of […] in media (Eagle’s Minimum Essential Medium (EMEM) supplemented with 10% v/v fetal bovine serum, 5% v/v L-glutamine and 5% v/v penicillin/streptomycin) were seeded into 96-well plates and cultured at 37°C in a 5% CO2 incubator for 16–20 h. When cells were ≥90% confluent, the 100 µL media was removed and replaced with 50 μL serial dilutions of the AMP in media (final concentration 20–0.5 μM) and cultured at 37°C in a 5% CO2 incubator for 90 min. From each well, 50 µL was transferred to a new plate. To the 50 μL, 50 µL of lactate dehydrogenase (LDH) solution (CytoTox 96® Non-Radioactive Cytotoxicity Assay kit, Promega) was added to each well and incubated for a further 30 min at room temperature and protected from light. Cell death was determined by measuring absorbance at 490 nm using a microplate reader (PerkinElmer 1,420 Multilabel Counter VICTOR3). Positive and negative controls for inhibition were taken as cells incubated with lysis solution (CytoTox 96® Non-Radioactive Cytotoxicity Assay kit, Promega) and cells incubated in media alone, respectively. The background absorbance of media alone was subtracted from the sample absorbance, and the percentage of inhibition was calculated using the following formula: % Cytotoxicity=A490 test sample−A490 negative control/A490 positive control−A490 negative control×100.
(§2) The percentage of lysis was plotted against peptide concentration, and linear regression analysis was used to determine the AMP concentration needed to lyse 50% (LD50) of the cells.
For orientation: LDH in the medium is a marker of cell lysis.

Data set [2] concerns HEK-293 (ATCC CRL-1573) cells. The data set is described as follows: Cytotoxicity (cell lysis), LDH release assay. The following applies: for TI (cell lysis): HEK293, LD50/MBC50; for LD50: HEK293 cells, LDH release, 90 min exposure at 37°C, 20–0.5 μM, concentration lysing 50% of cells by linear regression, mean ± SD, at least three biological repeats. The method, then: as §1, §2

For data set [3], the system named is H4IIE cells. The data set is described as follows: Inhibition of cell proliferation, MTS assay. The following applies: for IC50: H4IIE cells, MTS proliferation assay after 90 min exposure, 1 h MTS, linear regression, mean ± SD, at least three biological repeats; for TI (cell proliferation): H4IIE, IC50/MIC50. As for the experimental part: (§3) To determine the inhibition of cell proliferation, 20 μL of 3-(4,5-dimethylthiazol-2-yl)-5-(3-carboxymethoxyphenyl)-2-(4-sulfophenyl)-2H-tetrazolium (MTS) solution (CellTiter 96 AQueous Non-Radioactive Cell Proliferation Assay kit, Promega) was added to the remaining 100 µL from the toxicity assay, and the plates were incubated for a further 1 h at 37°C in a 5% CO2 incubator protected from light. Cell proliferation was determined by measuring absorbance at 490 nm using a microplate reader (PerkinElmer 1,420 Multilabel Counter VICTOR3). Positive and negative controls for inhibition were taken as cells incubated with lysis solution (CytoTox 96® Non-Radioactive Cytotoxicity Assay kit, Promega) and cells incubated in media alone, respectively. The background absorbance of media alone was subtracted from the samples, and the percentage of inhibition was calculated using the following formula: % Inhibition=A490 test sample−A490 negative control/A490 positive control−A490 negative control×100.
(§4) The percentage of inhibition was plotted against peptide concentration, and linear regression analysis was used to determine the AMP concentration needed to inhibit 50% (IC50) of cell growth.
(Formazan colour is commonly taken as a measure of viable cells.)

Data set [4] relates to HEK-293 (ATCC CRL-1573) cells. The data set is described as follows: Inhibition of cell proliferation, MTS assay. The following applies: for TI (cell proliferation): HEK293, IC50/MIC50; for IC50: HEK293 cells, MTS proliferation assay after 90 min exposure, 1 h MTS, linear regression, mean ± SD, at least three biological repeats. As for the experimental part:
as §3, §4

Data set [5] relates to Chicken red blood cells (RBCs). Put plainly: Hemolysis assay. The note with it: for HC50: chicken RBCs in PBS pH 7.4, 2 × 10^7 cells/mL stock, 10–0.08 μM, 2 h at 37°C, absorbance 405 nm, 1% Triton X-100 positive control, mean ± SD, at least three biological repeats; for TI (hemolysis) / TI (haemolysis): chicken RBCs, HC50/MBC50; for TI (hemolysis): MBC50 toward S. aureus 29213; for TI (haemolysis): MBC50 towards E. coli 8729. The method, then:
Chicken red blood cells (RBCs) in Alsever’s solution (RBCs, Equicell, Victoria, Australia) were diluted 1 in 20 in PBS (pH 7.4), pelleted by centrifugation, and washed three times in PBS (1,000 g, 10 min). The RBCs were counted using a cell counter (Coulter Particle Counter Z series, Beckman Coulter) and diluted to a final concentration of 2 × 10^7 cells/mL. Aliquots (100 μL) of the RBC solution were seeded into a V-bottomed 96-well plate containing 100 μL of serial dilutions (10–0.08 μM) of the AMP in PBS and incubated in a humidified atmosphere containing 5% CO2 at 37°C for 2 h. Following incubation, the RBCs were pelleted in a centrifuge (1,000 g, 10 min), and the amount of hemoglobin released in 100 μL aliquots of the supernatant was determined by measuring the absorbance at 405 nm using a microplate reader (PerkinElmer 1,420 Multilabel Counter VICTOR3). Positive and negative controls for hemolysis were taken as RBC lysed with 1% v/v Triton X-100 and RBC suspension in PBS, respectively. The percentage of hemolysis was calculated using the following formula: % Hemolysis A405 test sample−A405 negative control / A405 positive control−A405 negative controlx 100.
The percentage hemolysis was plotted against peptide concentration, and linear regression analysis was used to determine the hemolytic concentration needed to lyse 50% (HC50) of RBCs.

For `CC[C@H](C)[C@H](NC(=O)CN)C(=O)NCC(=O)N[C@@H](C)C(=O)N[C@H](C(=O)N[C@@H](CC(C)C)C(=O)N[C@@H](CCCN)C(=O)N[C@H](C(=O)N[C@@H](CC(C)C)C(=O)N[C@H](C(=O)N[C@H](C(=O)NCC(=O)N[C@@H](CC(C)C)C(=O)N1CCC[C@H]1C(=O)N[C@@H](C)C(=O)N[C@@H](CC(C)C)C(=O)N[C@H](C(=O)N[C@@H](CO)C(=O)N[C@@H](Cc1c[nH]c2ccccc12)C(=O)N[C@H](C(=O)N[C@@H](CCCN)C(=O)N[C@@H](CCCNC(=N)N)C(=O)N[C@@H](CCCN)C(=O)N[C@@H](CCCNC(=N)N)C(=O)N[C@@H](CCC(N)=O)C(=O)N[C@@H](CCC(N)=O)C(N)=O)[C@@H](C)CC)[C@@H](C)CC)[C@@H](C)O)[C@@H](C)O)C(C)C)C(C)C` [2. Lys → Orn melittin], the LD50 in data set [1] amounted to 2.22 ± 1.31 µM; in data set [2], 1.16 ± 0.09 µM. Moreover, the “TI (cell lysis)” value is listed as 2.80 in data set [1] (MBC50 toward S. aureus 29213), 0.63 in data set [1] (MBC50 towards E. coli 8729), 1.47 in data set [2] (MBC50 toward S. aureus 29213) and 0.33 in data set [2] (MBC50 towards E. coli 8729). Also, the IC50 came out at 3.37 ± 0.08 µM in data set [3] and 10.5 ± 2.65 µM in data set [4]. Also, the “TI (cell proliferation)” value in data set [3] (MIC50 toward S. aureus 29213) is on record as 5.26; in data set [3] (MIC50 towards E. coli 8729) it was 1.56; in data set [4] (MIC50 toward S. aureus 29213) it was 16.39; in data set [4] (MIC50 towards E. coli 8729), 4.86. In data set [5], this molecule gave an HC50 of 1.4 ± 1.14 µM. Besides, the “TI (hemolysis)” value in data set [5] was 1.80. Moreover, in data set [5], the “TI (haemolysis)” value worked out at 0.40.

Take `CC[C@H](C)[C@H](NC(=O)CN)C(=O)NCC(=O)N[C@@H](C)C(=O)N[C@H](C(=O)N[C@@H](CC(C)C)C(=O)N[C@@H](CCN)C(=O)N[C@H](C(=O)N[C@@H](CC(C)C)C(=O)N[C@H](C(=O)N[C@H](C(=O)NCC(=O)N[C@@H](CC(C)C)C(=O)N1CCC[C@H]1C(=O)N[C@@H](C)C(=O)N[C@@H](CC(C)C)C(=O)N[C@H](C(=O)N[C@@H](CO)C(=O)N[C@@H](Cc1c[nH]c2ccccc12)C(=O)N[C@H](C(=O)N[C@@H](CCN)C(=O)N[C@@H](CCCNC(=N)N)C(=O)N[C@@H](CCN)C(=O)N[C@@H](CCCNC(=N)N)C(=O)N[C@@H](CCC(N)=O)C(=O)N[C@@H](CCC(N)=O)C(N)=O)[C@@H](C)CC)[C@@H](C)CC)[C@@H](C)O)[C@@H](C)O)C(C)C)C(C)C` [3. Lys → Dab melittin]: the LD50 in data set [1] is 2.42 ± 1.82 µM; in data set [2], 1.19 ± 0.22 µM. Moreover, the “TI (cell lysis)” value turned out to be 2.74 in data set [1] (MBC50 toward S. aureus 29213), 0.86 in data set [1] (MBC50 towards E. coli 8729), 1.35 in data set [2] (MBC50 toward S. aureus 29213) and 0.42 in data set [2] (MBC50 towards E. coli 8729). Besides, the figures for the IC50 in data set [3] and in data set [4] were 3.08 ± 0.24 µM and 9.23 ± 2.91 µM, respectively. In addition, the “TI (cell proliferation)” value in data set [3] (MIC50 toward S. aureus 29213) was found to be 4.21; in data set [3] (MIC50 towards E. coli 8729) it was 1.12; in data set [4] (MIC50 toward S. aureus 29213) it was 12.60; in data set [4] (MIC50 towards E. coli 8729) it was 3.35. This molecule displayed an HC50 in data set [5] of 1.33 ± 1.02 µM. Further, the “TI (hemolysis)” value in data set [5] is 1.50. Also, the “TI (haemolysis)” value in data set [5] is recorded as 0.47.

`CC[C@H](C)[C@H](NC(=O)CN)C(=O)NCC(=O)N[C@@H](C)C(=O)N[C@H](C(=O)N[C@@H](CC(C)C)C(=O)N[C@@H](CN)C(=O)N[C@H](C(=O)N[C@@H](CC(C)C)C(=O)N[C@H](C(=O)N[C@H](C(=O)NCC(=O)N[C@@H](CC(C)C)C(=O)N1CCC[C@H]1C(=O)N[C@@H](C)C(=O)N[C@@H](CC(C)C)C(=O)N[C@H](C(=O)N[C@@H](CO)C(=O)N[C@@H](Cc1c[nH]c2ccccc12)C(=O)N[C@H](C(=O)N[C@@H](CN)C(=O)N[C@@H](CCCNC(=N)N)C(=O)N[C@@H](CN)C(=O)N[C@@H](CCCNC(=N)N)C(=O)N[C@@H](CCC(N)=O)C(=O)N[C@@H](CCC(N)=O)C(N)=O)[C@@H](C)CC)[C@@H](C)CC)[C@@H](C)O)[C@@H](C)O)C(C)C)C(C)C` [4. Lys → Dap melittin]: the LD50 is listed as 5.43 ± 0.91 µM in data set [1] and 2.02 ± 0.77 µM in data set [2]. For the same molecule, the “TI (cell lysis)” value in data set [1] (MBC50 toward S. aureus 29213) is recorded as 3.93; in data set [1] (MBC50 towards E. coli 8729) it was 1.93; in data set [2] (MBC50 toward S. aureus 29213) it was 1.47; in data set [2] (MBC50 towards E. coli 8729), 0.72. The IC50 amounted to 7.93 ± 0.12 µM in data set [3] and 14.3 ± 6.02 µM in data set [4]. The “TI (cell proliferation)” value in data set [3] (MIC50 toward S. aureus 29213) was found to be 10.00; in data set [3] (MIC50 towards E. coli 8729) it was 2.82; in data set [4] (MIC50 toward S. aureus 29213), 18.07; in data set [4] (MIC50 towards E. coli 8729), 5.10. In data set [5], this molecule returned an HC50 of 0.89 ± 0.39 µM. In addition, in data set [5], the “TI (hemolysis)” value is 0.64. Moreover, the “TI (haemolysis)” value in data set [5] is 0.32.
